Results of unrelated studies side by side (data: NIAID ChemDB).

All rows: whole-cell or culture tests; species: Rhinovirus; method: plaque count; measure: EC50

Conditions beyond the fields shown may differ between rows.

O=c1c(O)c(-c2ccc(Cl)cc2)oc2ccccc12 ; cell line: HeLa ; strain: Serotype 1B ; result: 1.27 µM
Fc1cccc(Nc2nc(C(F)(F)F)nc3c2ncn3Cc2ccccc2F)c1 ; cell line: M-HELA ; strain: Serotype 5 ; result: >20 µM
Cn1c2ccccc2c2nnc(NCC(O)CO)nc21 ; cell line: WI-38 ; strain: 1059 ; result: 20 µg/mL
Cc1cc(CCCOc2c(C)cc(-n3nnc(C)n3)cc2C)on1 ; strain: Serotype 14 ; result: 0.12 µg/mL
Cc1cc(CCCCCOc2c(Cl)cc(C3=NCCO3)cc2Cl)on1 ; cell line: HeLa ; strain: TYPE 9 ; result: 0.075 µg/mL
CNC(=O)C(c1ccc2nc(N)n(S(=O)(=O)C(C)C)c2c1)c1cccc2ccccc12 ; cell line: HeLa ; strain: 1059 (serotype 14) ; result: 0.21 µg/mL
Cc1ccc(Cn2cnc3c(N(C)C)nc(C(F)(F)F)nc32)cc1 ; cell line: M-HELA ; strain: TYPE 8 ; result: >2.5 µM
Cc1ccccc1Cn1cnc2c(N(C)C)nc(C(F)(F)F)nc21 ; cell line: M-HELA ; strain: TYPE 1B ; result: 0.29 µM
Cn1c2ccccc2c2nnc(SCCN3CCOCC3)nc21 ; cell line: WI-38 ; strain: 1059 ; result: 4 µg/mL
CN(C)c1nc(Cl)nc2c1ncn2Cc1cccc(OCc2ccccc2)c1 ; cell line: M-HELA ; strain: Serotype 1B ; result: >50 µM
Cc1cc(Cl)ccc1Cn1cnc2c(N(C)C)nc(C(F)(F)F)nc21 ; cell line: M-HELA ; strain: Serotype 15 ; result: >8 µM
COc1cc(C(=O)Oc2c(-c3ccc(Cl)c(Cl)c3)oc3ccccc3c2=O)ccc1OC(C)=O ; cell line: HeLa ; strain: Serotype 14 ; result: >1.56 µM
CC(C)S(=O)(=O)n1c(N)nc2ccc(C(C(N)=O)c3cc(F)ccc3F)cc21 ; cell line: HeLa ; strain: 1059 (serotype 14) ; result: 0.08 µg/mL
CN(C)c1nc(C(F)(F)F)nc2c1ncn2Cc1ccc(Cl)c(NC=O)c1 ; cell line: M-HELA ; strain: Serotype 5 ; result: >8 µM
Cc1cc(CCCOc2c(C)cc(-c3coc(C)n3)cc2C)on1 ; strain: Serotype 14 ; result: 0.221 µg/mL
CCc1ccc(Cn2cnc3c(N(C)C)nc(Cl)nc32)cc1 ; cell line: M-HELA ; strain: Serotype 18 ; result: >4 µM
Cn1c2ccccc2c2nnc(NCC(C)(CO)c3ccccc3)nc21 ; cell line: WI-38 ; strain: 1059 ; result: 45 µg/mL
CSc1ccc(Cn2cnc3c(N(C)C)nc(C(F)(F)F)nc32)cc1 ; cell line: M-HELA ; strain: Serotype 13 ; result: >8 µM
Fc1cccc(Cn2cnc3c(Nc4cccc(F)c4)nc(C(F)(F)F)nc32)c1 ; cell line: M-HELA ; strain: Serotype 26 ; result: 3 µM
CN(C)c1nc(Cl)nc2c1ncn2Cc1ccc(Cl)cc1 ; cell line: M-HELA ; strain: Serotype 19 ; result: >5 µM
CCCCCCCCCCCCNc1nnc2c3ccccc3n(C)c2n1 ; cell line: WI-38 ; strain: 1059 ; result: 4 µg/mL
COc1cc(C(=O)Oc2c(-c3ccc(Cl)cc3)oc3ccccc3c2=O)ccc1O ; cell line: HeLa ; strain: Serotype 14 ; result: >6.25 µM
CN(C)c1nc(C(F)(F)F)nc2c1ncn2Cc1ccc([N+](=O)[O-])cc1 ; cell line: M-HELA ; strain: Serotype 31 ; result: >8 µM
OCCCNc1nnc2c3ccccc3n(Cc3ccccc3)c2n1 ; cell line: WI-38 ; strain: 33342 ; result: 30 µg/mL
COc1cc(C(=O)Oc2c(-c3ccc(Cl)cc3)oc3ccccc3c2=O)cc(OC)c1OC(C)=O ; cell line: HeLa ; strain: Serotype 14 ; result: >1.56 µM
CN(C)c1nc(C(F)(F)F)nc2c1ncn2Cc1ccc(Cl)c(N)c1 ; cell line: M-HELA ; strain: Serotype 13 ; result: >8 µM
COc1ccc(OCCCCCCn2ccnc2)c(Cl)c1 ; cell line: HeLa ; strain: TYPE 10 ; result: 29.1 µM
COc1cc(/C=C/C(=O)Oc2c(-c3ccc(Cl)c(Cl)c3)oc3ccccc3c2=O)ccc1O ; cell line: HeLa ; strain: Serotype 1B ; result: >1.56 µM
CCC(=O)OCCCNc1nnc2c3ccccc3n(C)c2n1 ; cell line: WI-38 ; strain: 1059 ; result: 220 µg/mL
O=C(Oc1c(-c2ccc(Cl)c(Cl)c2)oc2ccccc2c1=O)c1cc(OCc2ccccc2)c(OCc2ccccc2)c(OCc2ccccc2)c1 ; cell line: HeLa ; strain: Serotype 1B ; result: >6.25 µM
CC(C)S(=O)(=O)n1c(N)nc2ccc(C(C(N)=O)c3c(F)c(F)cc(F)c3F)cc21 ; cell line: HeLa ; strain: 1059 (serotype 14) ; result: 0.05 µg/mL
COc1cc(C(=O)Oc2c(-c3ccc(Cl)c(Cl)c3)oc3ccccc3c2=O)cc(OC)c1O ; cell line: HeLa ; strain: Serotype 1B ; result: >1.56 µM
CN(C)c1nc(C(F)(F)F)nc2c1ncn2Cc1ccccc1 ; cell line: M-HELA ; strain: TYPE 1B ; result: 0.04 µM
CNC(=O)C(c1ccccc1)c1ccc2nc(N)n(S(=O)(=O)C(C)C)c2c1 ; cell line: HeLa ; strain: 1059 (serotype 14) ; result: 0.07 µg/mL

ECn is the concentration giving n% inhibition of infection, replication or growth.